Results of unrelated studies side by side (data: NIAID ChemDB).

Common to all: whole-cell or culture tests; organism: HIV-1; method: p24; endpoint: EC50

Blank or dashed fields: not listed here.

CC(C)(C)NC(=O)[C@@H]1C[C@@H]2CCCC[C@@H]2CN1C[C@@H](O)[C@H](Cc1ccccc1)NC(=O)[C@@H](NC(=O)c1ccc2ccccc2n1)[C@H]1CCOC1 ; cell line: MT-4 ; strain: IIIB ; result: <0.008 µM
C/C(=C(/CCO)SSCC1CCCO1)N(C=O)Cc1cnc(C)nc1N ; cell line: H9/HIV-1(MN) + H9 ; strain: MN ; result: <50 µM
CC[C@H](C)C(=O)O[C@H]1C[C@@H](C)C=C2C=C[C@H](C)[C@H](CC[C@@H]3C[C@@H](O)CC(=O)O3)[C@H]21 ; cell line: PBMC ; strain: NL4-3 ; result: >50 µM
O=C(O)C(=O)CC(=O)c1cc(OCc2ccccc2)cc(OCc2ccccc2)c1 ; cell line: MT-4 ; strain: IIIB ; result: <17.4 µM
CC(C)(C)NC(=O)[C@@H]1C[C@@H]2CCCC[C@@H]2CN1C[C@@H](O)[C@H](Cc1ccccc1)NC(=O)[C@H](CC(N)=O)NC(=O)c1ccc2ccccc2n1 ; changes: PR-L10R L63P V82T ; cell line: MT-4 ; strain: NL4-3 ; result: <0.025 µM
O=c1[nH]cnc2c1ncn2[C@H]1CC[C@@H](CO)O1 ; changes: RT-M41L L74V V106A T215F ; cell line: C8166 ; result: 14 µM
CC(C)(c1cc2cnccc2o1)N1CCN(C[C@@H](O)C[C@@H](Cc2ccccc2)C(=O)N[C@H]2c3ccccc3OC[C@H]2O)[C@H](C(=O)Nc2ccccc2)C1 ; cell line: MT-4 ; strain: NL4-3 ; result: <0.25 µM
CCCCCCCCCCCCCC(=O)OC[C@@H](COP(=O)(O)OC[C@@H]1CC[C@H](n2cc(C)c(=O)[nH]c2=O)O1)OC(=O)CCCCCCCCCCCCC ; cell line: CEM/TK- ; strain: BRU ; result: >100 µM
Cc1ccncc1-c1ccc(C[C@H](C[C@H](O)CN2CCN(Cc3ccc(-c4ccc(Cl)cc4)o3)C[C@H]2C(=O)NCC(F)(F)F)C(=O)N[C@H]2c3ccccc3OC[C@H]2O)o1 ; changes: PR-M46I L63P V82T I84V ; cell line: MT-4 ; strain: 4X (PR M46I L63P V82T I84V) ; result: <0.0313 µM
COC(=O)[C@H](C)NP(=O)(OC[C@H]1O[C@@H](n2cc(C)c(=O)[nH]c2=O)C[C@@H]1N=[N+]=[N-])Oc1ccc(Br)cc1 ; cell line: CEM + CEM TK- ; strain: IIIB ; result: <0.01 µM
CCO/N=C(\c1ccc(Br)cc1)C1CCN(C2(C)CCN(C(=O)c3c(C)cc[n+]([O-])c3C)CC2)CC1 ; cell line: PBMC ; strain: ADA-M R5 CLADE B ; result: 0.003 µM
COP(=S)(OC[C@@H]1CC[C@H](n2cnc3c(=O)[nH]cnc32)O1)C(=O)O ; result: 1–10 µM
CC(C)(C)NC(=O)[C@@H]1C[C@@H]2CCCC[C@@H]2CN1C[C@@H](O)[C@H](Cc1ccccc1)NC(=O)[C@H](CC(N)=O)NC(=O)c1ccc2ccccc2n1 ; cell line: MT-4 ; strain: PR-WT ; result: <0.025 µM
CC(C)[C@H](NC(=O)c1cc(=O)c2ccccc2o1)C(=O)N[C@@H](Cc1ccccc1)[C@H](O)CN1C[C@H]2CCCC[C@H]2C[C@H]1C(=O)NC(C)(C)C ; cell line: MT-4 ; strain: IIIB ; result: <0.025 µM
Nc1ccn([C@H]2CC[C@@H](CO)O2)c(=O)n1 ; changes: RT-I50T ; cell line: MT-4 ; strain: HXB2-D50(RT-I50T) ; result: 0.48 µM
c1cc(CN2CCCNCCNCCCNCC2)ccc1CN1CCCNCCNCCCNCC1 ; cell line: PBMC ; strain: CM7 CLADE C R5 ; result: >0.5 µM
Cc1cn([C@H]2C[C@H](N=[N+]=[N-])[C@@H](CO)O2)c(=O)[nH]c1=O ; cell line: PBMC ; strain: IIIB ; result: 0.011 µg/mL
O=C(N[C@H]1c2ccccc2OC[C@H]1O)[C@H](Cc1cc2ccncc2o1)C[C@H](O)CN1CCN(Cc2ccc(-c3ccc(Cl)cc3)o2)C[C@H]1C(=O)NCC(F)(F)F ; changes: PR-M46I L63P V82T I84V ; cell line: MT-4 ; strain: 4X (PR M46I L63P V82T I84V) ; result: <0.0313 µM
CC(c1nc(C(=O)NCc2ccc(F)cc2)c(O)c(=O)[nH]1)N(C)C ; cell line: MT-4 ; conditions: 10% FBS ; result: <0.125 µM
CC(C)(c1cc2cnccc2o1)N1CCN(C[C@@H](O)C[C@@H](Cc2ccccc2)C(=O)N[C@H]2c3ccccc3OC[C@H]2O)[C@H](C(=O)NCCC(F)(F)F)C1 ; cell line: MT-4 ; strain: NL4-3 ; result: <0.062 µM
C[C@H](NC(=O)[C@H](CCCN=C(N)N)NC(=O)c1ccc(CNCc2ccccn2)cc1)c1cccc2ccccc12 ; cell line: PBMC ; strain: YU-2 R5 clinical isolate ; result: >2 µM
CC(C)(C)NC(=O)[C@@H]1C[C@@H]2CCCC[C@@H]2CN1C[C@@H](O)[C@H](Cc1ccccc1)NC(=O)[C@H](CC(N)=O)NC(=O)c1ccc2ccccc2n1 ; changes: MDR ; cell line: PBMC ; strain: JSL ; result: 0.08 µM
Cc1c(Sc2ccccc2)n(COCCO)c(=O)[nH]c1=O ; cell line: PBL(DAY 10) + PBL ; strain: IIIB ; result: 1.6 µM
CC(C)(c1cc2cnccc2o1)N1CCN(C[C@@H](O)C[C@@H](Cc2ccccc2)C(=O)N[C@H]2c3ccccc3OC[C@H]2O)[C@H](C(=O)NCC(F)(F)C(F)(F)F)C1 ; cell line: MT-4 ; strain: NL4-3 ; result: <0.008 µM
O=C(N[C@H]1c2ccccc2OC[C@H]1O)[C@H](Cc1cc2cnccc2s1)C[C@H](O)CN1CCN(Cc2csc(-c3ccc(C(F)(F)F)cc3)n2)C[C@H]1C(=O)NCC(F)(F)F ; changes: PR-M46I L63P V82T I84V ; cell line: MT-4 ; strain: 4X (PR M46I L63P V82T I84V) ; result: <0.125 µM
Cc1cn([C@H]2C[C@H](N=[N+]=[N-])[C@@H](CO)O2)c(=O)[nH]c1=O ; cell line: PBMC ; strain: JR-CSF ; result: 0.0059 µM
[Li+] ; cell line: PBL ; strain: IIIB ; result: >1000 µg/mL
Cc1cn([C@H]2C[C@H](N=[N+]=[N-])[C@@H](COP(=O)(O)OCCOc3ccc4ccccc4c3)O2)c(=O)[nH]c1=O ; result: 1–10 µM
Cc1cn([C@H]2C[C@H](N=[N+]=[N-])[C@@H](CO)O2)c(=O)[nH]c1=O ; strain: CC8 Clinical isolates ; result: 0.003 µM
CN1CCOCC1c1nc(C(=O)NCc2ccc(F)cc2)c(O)c(=O)[nH]1 ; cell line: MT-4 ; conditions: 10% FBS ; result: <0.03 µM
CC(C)CNC(=O)[C@@H]1CN(C(C)(C)c2cc3cnccc3o2)CCN1C[C@@H](O)C[C@@H](Cc1ccccc1)C(=O)N[C@H]1c2ccccc2OC[C@H]1O ; cell line: MT-4 ; strain: NL4-3 ; result: <0.015 µM
O=C1N(Cc2ccc(CO)cc2)[C@H](Cc2ccccc2)[C@H](O)[C@@H](O)[C@@H](Cc2ccccc2)N1Cc1ccc(CO)cc1 ; changes: PR-L10R ; cell line: MT-4 ; strain: NL4-3 ; result: <0.2 µM
Cc1ccncc1-c1ccc(C[C@H](C[C@H](O)CN2CCN(C(C)(C)c3ncc(-c4ccc(Cl)cc4)s3)C[C@H]2C(=O)NCC(F)(F)F)C(=O)N[C@H]2c3ccccc3OC[C@H]2O)o1 ; cell line: MT-4 ; strain: NL4-3 ; result: <0.0156 µM
O=c1c2ccccc2n2nnc3ccc(NCCCN4CCN(CCCNc5ccc6nnn7c8ccccc8c(=O)c5c67)CC4)c1c32 ; cell line: PBL ; strain: Nevirapine-resistant ; result: 0.01 µM
CCNC(=O)[C@@H]1CN(C(C)(C)c2cc3cnccc3o2)CCN1C[C@@H](O)C[C@@H](Cc1ccccc1)C(=O)N[C@H]1c2ccccc2OC[C@H]1O ; cell line: MT-4 ; strain: NL4-3 ; result: <0.031 µM
c1cc(CN2CCCNCCNCCCNCC2)ccc1CN1CCCNCCNCCCNCC1 ; changes: MDR ; cell line: PBMC ; strain: MM ; result: >1 µM
CC(C)(C)NC(=O)[C@@H]1C[C@@H]2CCCC[C@@H]2CN1C[C@@H](O)[C@H](Cc1ccccc1)NC(=O)[C@@H](NC(=O)c1cnc2ccccc2n1)[C@H]1CCOC1 ; cell line: MT-4 ; strain: IIIB ; result: <0.012 µM
CC(C)(c1cc2cnccc2o1)N1CCN(C[C@@H](O)C[C@@H](Cc2ccccc2)C(=O)N[C@H]2c3ccccc3OC[C@H]2O)[C@H](C(=O)NC2CC2)C1 ; cell line: MT-4 ; strain: NL4-3 ; result: <0.062 µM
Nc1ccn([C@H]2CC[C@@H](CO)O2)c(=O)n1 ; cell line: MT-4 ; strain: 263 ; result: 0.35 µM
CCCCN1C(=O)C(CC2CCCCC2)NC(=O)C12CCN(Cc1ccc3c(c1)OCCO3)CC2 ; cell line: PBMC ; strain: MOKW ; result: 0.04 µM
COC(=O)[C@H](C)NP(=O)(OC[C@@H]1C=C[C@H](n2cc(C)c(=O)[nH]c2=O)O1)Oc1ccc(Br)cc1 ; changes: RT-M41L T69ins L74V M184V L210W T215Y ; cell line: PBMC ; strain: 52534-2 NRTI resistant recombinant ; result: 0.0579 µM
CN(C)c1nc(N)c(C(=O)N[C@H](C(=O)N[C@@H](Cc2ccccc2)[C@H](O)CN2C[C@H]3CCCC[C@H]3C[C@H]2C(=O)NC(C)(C)C)[C@H]2CCOC2)nc1Cl ; cell line: MT-4 ; strain: IIIB ; result: <0.025 µM
CC(C)(C)NC(=O)[C@@H]1CCCN1C(=O)[C@@H](O)[C@H](Cc1ccccc1)NC(=O)[C@H](CC(N)=O)NC(=O)c1cnc2ccccc2n1 ; cell line: CEM ; strain: IIIB ; result: <0.5 µM
CN(C)c1ncc(C(=O)N[C@H](C(=O)N[C@@H](Cc2ccccc2)[C@H](O)CN2C[C@H]3CCCC[C@H]3C[C@H]2C(=O)NC(C)(C)C)[C@H]2CCOC2)nc1Cl ; cell line: MT-4 ; strain: IIIB ; result: <0.012 µM
O=C(NCc1ccc(F)cc1)c1nc(N2CCCCS2(=O)=O)c2cccnc2c1O ; cell line: Macrophage ; strain: BaL ; result: <0.104 µM
CC(C)=CCN1Cc2cccc3[nH]c(=S)n(c23)C[C@@H]1C ; cell line: MT-4 ; strain: rHXB2 ; result: <0.1 µM
CC(C)[C@H](NC(=O)c1ccc2ccccc2n1)C(=O)N[C@@H](Cc1ccccc1)[C@H](O)CN1C[C@H]2CCCC[C@H]2C[C@H]1C(=O)NC(C)(C)C ; cell line: MT-4 ; strain: IIIB ; result: <0.1 µM
CC(C)(O)c1cccc(CN2C(=O)N(Cc3cccc(C(C)(C)O)c3)[C@H](Cc3ccccc3)[C@H](O)[C@@H](O)[C@H]2Cc2ccccc2)c1 ; changes: PR-V82F ; cell line: MT-2/MT-4 + MT-2 ; strain: HXB2 ; result: <0.0843 µM
O=c1[nH]cnc2c1ncn2[C@H]1CC[C@@H](CO)O1 ; cell line: PBMC ; strain: MOKW ; result: 0.48 µM
CCc1cc(NCc2nc3ccccc3o2)c(=O)[nH]c1C ; cell line: MT-4 ; strain: rHXB2 ; result: <0.2 µM
Cc1cn([C@H]2C=C[C@@H](CO)O2)c(=O)[nH]c1=O ; cell line: PBMC ; strain: MOKW ; result: 0.015 µM
Cc1ccnc2c1NC(=O)c1cccnc1N2C1CC1 ; cell line: MT-4 ; strain: rA17 ; result: <100 µM
O=C(N[C@H]1c2ccccc2OC[C@H]1O)[C@H](Cc1cc2cnccc2s1)C[C@H](O)CN1CCN(Cc2ccc(-c3ccc(Cl)cc3)s2)C[C@H]1C(=O)NCC(F)(F)F ; changes: PR-M46I L63P V82T I84V ; cell line: MT-4 ; strain: 4X (PR M46I L63P V82T I84V) ; result: <0.0156 µM
Cc1cn([C@H]2C[C@H](N=[N+]=[N-])[C@@H](CO)O2)c(=O)[nH]c1=O ; changes: RT-M41L E44D D67N T69D L210W T215Y ; cell line: PBMC ; strain: T156-3 NRTI resistant ; result: >3.2 µM
CC(C)(c1cc2cnccc2o1)N1CCN(C[C@@H](O)C[C@@H](Cc2ccccc2)C(=O)N[C@H]2c3ccccc3OC[C@H]2O)[C@H](C(=O)NC2CCCC2)C1 ; cell line: MT-4 ; strain: NL4-3 ; result: <0.008 µM

For reference, 3 entries again:

structure,changes,cell line,conditions,strain,result
Nc1ccn([C@H]2CC[C@@H](CO)O2)c(=O)n1,,MT-4,,263,0.35 µM
CC(C)[C@H](NC(=O)c1ccc2ccccc2n1)C(=O)N[C@@H](Cc1ccccc1)[C@H](O)CN1C[C@H]2CCCC[C@H]2C[C@H]1C(=O)NC(C)(C)C,,MT-4,,IIIB,<0.1 µM
O=C(N[C@H]1c2ccccc2OC[C@H]1O)[C@H](Cc1cc2cnccc2s1)C[C@H](O)CN1CCN(Cc2csc(-c3ccc(C(F)(F)F)cc3)n2)C[C@H]1C(=O)NCC(F)(F)F,PR-M46I L63P V82T I84V,MT-4,,4X (PR M46I L63P V82T I84V),<0.125 µM

Conditions beyond the fields shown may differ between rows. Two numbers with a dash give a range or band. ECn: concentration that inhibits the pathogen or its effect by n%.